Pooled drug test results. Numbers come from NIAID ChemDB, via PubChem.

Shared fields: tests in culture; organism: HIV-1; endpoint: fold resistance

An empty or dashed field is not shown.

CC(C)OC(=O)c1cc(NC(=S)SC(C)C)ccc1Cl ; mutations: RT-E138K ; method: syncytia ; cells: CEM ; result: >1.54
CCC(=O)c1ccc(F)c([C@@H]2C[C@@H]2NC(=O)Nc2ccc(C#N)cn2)c1O ; mutations: NNRTI-resistant (RT Y181I) ; method: β-galactosidase / luminescence ; cells: TZM-bl ; strain or isolate: LAI ; result: ≥100
Cc1cc(S(N)(=O)=O)ccc1NC(=O)COc1ccc(Cl)cc1C(=O)c1cc(F)cc(C(F)(F)F)c1 ; mutations: RT-K101E ; method: β-galactosidase ; cells: HeLa + HELA CD4+ ; strain or isolate: HXB2 ; result: ~1
COC(=O)c1cc(NC(=S)OC(C)C)ccc1Cl ; mutations: RT-L100I ; method: syncytia ; cells: CEM ; result: 12
CCOCn1c(Sc2ccccc2)c(CC)c(=O)[nH]c1=S ; mutations: RT-Y181I ; method: syncytia ; cells: CEM ; strain or isolate: IIIB ; result: 282
CC(C)=CCOc1cc(NC(=S)c2ccsc2C)ccc1Cl ; mutations: RT-V179D ; method: p24 ; cells: CEM + CEM-SS ; strain or isolate: NL4-3 ; result: 1
Cc1cc(C#N)cc(C(=O)c2cc(Cl)ccc2OCC(=O)Nc2ccc(OCCCN3CC=CC3)cc2C)c1 ; mutations: RT-Y181C ; method: β-galactosidase ; cells: HeLa + HELA CD4+ ; strain or isolate: HXB2 ; result: ~1
CC(C)=CCOc1cc(NC(=S)c2ccoc2C)ccc1Cl ; mutations: RT-Y188H ; method: syncytia ; cells: CEM ; strain or isolate: IIIB ; result: 5
CC(C)=CCOc1cc(NC(=S)c2ccoc2C)ccc1Cl ; mutations: RT-P236L ; method: cytopathic effect / XTT ; cells: CEM + CEM-SS ; strain or isolate: HEPT-resistant (RT P236L) ; result: 2
CC(C)c1c(Sc2ccccc2)n(COCCO)c(=O)[nH]c1=O ; mutations: RT-Y181I ; method: syncytia ; cells: CEM ; strain or isolate: IIIB ; result: >357
O=C1Nc2ccc(Cl)cc2[C@@](/C=C/C2CC2)(C(F)(F)F)N1 ; mutations: RT-K103N ; result: 13.5
CCOCn1c(Cc2cc(C)cc(C)c2)c(CC)c(=O)[nH]c1=O ; mutations: Nevirapine resistant (RT Y181C) ; method: syncytia ; cells: CEM ; strain or isolate: IIIB ; result: 60
CC(C)[C@H](NC(=O)OCc1ccccn1)C(=O)N[C@@H](Cc1ccccc1)[C@@H](O)C[C@H](Cc1ccccc1)NC(=O)OCc1cccnc1 ; mutations: PR-L10R M46I ; method: p24 ; cells: MT-4 ; strain or isolate: NL4-3 ; result: 1
CSCCOC(=S)Nc1ccc(Cl)c(C(=O)OC(C)C)c1 ; mutations: RT-L100I ; method: syncytia ; cells: CEM ; result: 11.1
CC1=C(C(=O)Nc2ccc(Cl)c(C(=O)OC(C)C)c2)SCCO1 ; mutations: RT-E138K ; method: syncytia ; cells: CEM ; strain or isolate: IIIB ; result: >1450
CC(C)OC(=O)c1cc(NC(=O)OCC2CC2)ccc1Cl ; mutations: RT-V106A ; method: syncytia ; cells: CEM ; result: 20
CCc1c(Sc2cc(C)cc(C)c2)n(COCc2ccccc2)c(=S)[nH]c1=O ; mutations: RT-Y181I ; method: syncytia ; cells: CEM ; strain or isolate: IIIB ; result: 40
C=CCOC(=O)c1cc(NC(=S)OC(C)C)ccc1Cl ; mutations: RT-L100I ; method: syncytia ; cells: CEM ; result: 17.6
O=C1Nc2ccc(Cl)cc2[C@@](C#CC2CC2)(C(F)(F)F)O1 ; mutations: K103N ; cells: MT-4 ; result: 27
Cc1cc(C#N)cc(C(=O)c2cc(Cl)ccc2OCC(=O)Nc2ccc(S(N)(=O)=O)nc2C)c1 ; mutations: RT-V106I Y181C ; method: β-galactosidase ; cells: HeLa + HELA CD4+ ; strain or isolate: HXB2 ; result: ~1
Cc1ccc(C2CC2)c(-c2ccc3c(c2C)CCCO3)c1[C@H](OC(C)(C)C)C(=O)O ; mutations: INSTI-resistant (IN-N155H) ; method: luminescence ; cells: MT-4 ; strain or isolate: NL4-3 ; result: 1
CC(C)=CCOc1cc(NC(=S)c2ccsc2C)ccc1Cl ; mutations: RT-L100I ; method: cytopathic effect / XTT ; cells: CEM + CEM-SS ; strain or isolate: NL4-3 (RT L100I) ; result: 33.3
Cc1cc2[nH]cnc2cc1NC(=O)COc1ccc(Cl)cc1C(=O)c1cc(F)cc(C(F)(F)F)c1 ; mutations: RT-P225H ; method: β-galactosidase ; cells: HeLa + HELA CD4+ ; strain or isolate: HXB2 ; result: ~1
CC(C)OC(=S)Nc1ccc(Cl)c(C(=O)OC(C(C)C)C(C)C)c1 ; mutations: RT-Y181C ; method: syncytia ; cells: CEM ; result: >14.3
C[C@@H]1CCO[C@H]2Cn3cc(C(=O)NCc4ccc(F)cc4F)c(=O)c(O)c3C(=O)N12 ; mutations: R263K ; method: RT activity ; cells: CBMC ; strain or isolate: NL4-3 ; result: 1.9
O=C1Nc2ccc(Cl)cc2[C@@](C#CC2CC2)(C(F)(F)F)N1 ; mutations: RT-V108I ; result: <6.32
Cc1ccc(C2CC2)c(-c2cc(F)c3c(c2C)CCCO3)c1[C@H](OC1CC1)C(=O)O ; mutations: INSTI-resistant (IN-G140S) ; method: luminescence ; cells: MT-4 ; strain or isolate: NL4-3 ; result: 1

The last 3 rows once more:

compound | mutations | method | cells | strain or isolate | result
C[C@@H]1CCO[C@H]2Cn3cc(C(=O)NCc4ccc(F)cc4F)c(=O)c(O)c3C(=O)N12 | R263K | RT activity | CBMC | NL4-3 | 1.9
O=C1Nc2ccc(Cl)cc2[C@@](C#CC2CC2)(C(F)(F)F)N1 | RT-V108I |  |  |  | <6.32
Cc1ccc(C2CC2)c(-c2cc(F)c3c(c2C)CCCO3)c1[C@H](OC1CC1)C(=O)O | INSTI-resistant (IN-G140S) | luminescence | MT-4 | NL4-3 | 1

Neighbouring rows are from separate reports. Fold resistance: result on the changed form divided by that on wild type.